Tested on: EBOV minigenome (WT NP)
Details: BSR-T7

**Q.** For O=C(c1cccc(/C=C2\SC(=O)N(Cc3ccccc3)C2=O)c1)N1CCN(c2ccccn2)CC1 [MCCB4], which SI, Selective Index (CC50/EC50) is on record?
**A.** > 20.8
